Results of unrelated studies side by side (data: NIAID ChemDB).

Common to all: whole-cell or culture tests; agent: Mycobacterium smegmatis; endpoint: inhibition

Percent inhibition refers to the dose given; in toxicity tests it is the harm to the cells. Conditions beyond the fields shown may differ between rows. An empty or dashed field is not shown.

| compound | strain | read by | dose | result |
|---|---|---|---|---|
| CC(C)NCC(C)NC(C)C | ATCC 607 |  | 250 µg/mL | 100% |
| O=C1NC(=S)S/C1=C/c1ccc(-c2cccc(C(F)(F)F)c2)o1 |  | broth dilution / turbidity | 4 µM | 98% |
| Cc1ccc(-c2nc(C)c(-c3cn4cc(Cl)ccc4n3)s2)cc1 | mc2155 | broth dilution / absorbance | 30 µM | 4.4% |
| Cc1c(C(=O)O)nn(-c2ccc(Cl)cc2Cl)c1-c1ccc(Cl)cc1 | mc2155 | agar | 30 µM | 22.84% |
| Cc1nc(-c2ccc(Cl)cc2)sc1-c1cn2cc(Cl)ccc2n1 | mc2155 | broth dilution / absorbance | 30 µM | 1.8% |
| CCCC(CCC)NCCNC(CCC)CCC | ATCC 607 |  | 60 µg/mL | 100% |
| Cc1ccc(S(=O)(=O)Nc2oc(-c3ccccc3)c(-c3ccccc3)c2C#N)cc1 |  | resazurin | 50 µg/mL | 37% |
| Cc1c(C(=O)NNC(=O)c2ccncc2)nn(-c2ccc(Cl)cc2Cl)c1-c1ccccc1 | mc2155 | agar | 30 µM | 1.362% |
| CCC(CC)NCCNC(CC)CC | ATCC 607 |  | 250 µg/mL | 0% |
| C=C/C(C)=C/[C@@]1(C)SC(=O)C(C)=C1O | mc2155 |  | 75 µg/mL | 86% |
| Cc1c(C(=O)O)nn(-c2ccc(Cl)cc2Cl)c1-c1ccccc1 | mc2155 | agar | 30 µM | 15.73% |
| Cc1nc(-c2ccc(F)cc2)sc1-c1cn2ccccc2n1 | mc2155 | broth dilution / absorbance | 30 µM | 29.5% |
| Cc1c(C(=O)O)nn(-c2ccccc2)c1-c1ccc(Cl)cc1 | mc2155 | agar | 30 µM | 17.7% |
| CC(C)C(C)NCCNC(C)C(C)C | ATCC 607 |  | 250 µg/mL | 0% |
| Cc1c(C(=O)NNC(=O)c2ccncc2)nn(-c2ccc(Cl)cc2Cl)c1-c1ccc(Cl)cc1 | mc2155 | agar | 30 µM | 19.21% |
| CCCCN(CCCC)CCN(C)C | ATCC 607 |  | 250 µg/mL | 0% |
| Cc1ccc(-c2nc(C)c(-c3cn4ccccc4n3)s2)cc1 | mc2155 | broth dilution / absorbance | 30 µM | 12.3% |
| CCCCCN(CCCCC)CCN(CCCCC)CCCCC | ATCC 607 |  | 8 µg/mL | 100% |
| Cc1nc(-c2ccccc2)sc1-c1cn2cc(Br)ccc2n1 | mc2155 | broth dilution / absorbance | 30 µM | 55.6% |

2 of the rows above, restated:

compound | strain | read by | dose | result
Cc1c(C(=O)NNC(=O)c2ccncc2)nn(-c2ccc(Cl)cc2Cl)c1-c1ccccc1 | mc2155 | agar | 30 µM | 1.362%
Cc1nc(-c2ccccc2)sc1-c1cn2cc(Br)ccc2n1 | mc2155 | broth dilution / absorbance | 30 µM | 55.6%